Results on one substance are retold here after publication PMC8977893 (Frontiers in Cell and Developmental Biology, 2022).

For the data set, the system named is SH-SY5Y cells. The class given is cell-based, human. The following applies: phase contrast and confocal microscopy.

Take “fibrinogen: thrombogenic plasma protein fibrinogen from human plasma (Sigma #F4883)”: the “effect of fibrinogen preincubation on prion-induced aggregates and nuclear clusters” value is on record as “prevented the cells from forming aggregates as well as nuclear clusters”.
